# Measurements as given in paper PMC2884949, “The outer membrane secretin PilQ from Neisseria meningitidis binds DNA”.
# Experiments:
# [1] = tested on: MutY DNA glycosylase; test: EMSA; settings: 5 mM Mg2+; EMSA: 50 mM MOPS pH 7.5, 1 mM EDTA, 1 mM DTT, 5 mM MgCl2, 5% glycerol, 200 ng protein in 10 ul, 20 min room temperature; 6% PAGE; recombinant …; protein details: His; label: 5' 32P
# [2] = target: T1, PilQ complex (native secretin) (Neisseria meningitidis M1080) (UniProt Q9JVW4); test: EMSA; settings: 5 mM Mg2+; EMSA: 50 mM MOPS pH 7.5, 1 mM EDTA, 1 mM DTT, 5 mM MgCl2, 5% glycerol, 200 ng protein in 10 ul, 20 min room temperature; 6% PAGE; native protein; label: 5' 32P; single-stranded DNA
# T1 sequence (looked up, limits assumed): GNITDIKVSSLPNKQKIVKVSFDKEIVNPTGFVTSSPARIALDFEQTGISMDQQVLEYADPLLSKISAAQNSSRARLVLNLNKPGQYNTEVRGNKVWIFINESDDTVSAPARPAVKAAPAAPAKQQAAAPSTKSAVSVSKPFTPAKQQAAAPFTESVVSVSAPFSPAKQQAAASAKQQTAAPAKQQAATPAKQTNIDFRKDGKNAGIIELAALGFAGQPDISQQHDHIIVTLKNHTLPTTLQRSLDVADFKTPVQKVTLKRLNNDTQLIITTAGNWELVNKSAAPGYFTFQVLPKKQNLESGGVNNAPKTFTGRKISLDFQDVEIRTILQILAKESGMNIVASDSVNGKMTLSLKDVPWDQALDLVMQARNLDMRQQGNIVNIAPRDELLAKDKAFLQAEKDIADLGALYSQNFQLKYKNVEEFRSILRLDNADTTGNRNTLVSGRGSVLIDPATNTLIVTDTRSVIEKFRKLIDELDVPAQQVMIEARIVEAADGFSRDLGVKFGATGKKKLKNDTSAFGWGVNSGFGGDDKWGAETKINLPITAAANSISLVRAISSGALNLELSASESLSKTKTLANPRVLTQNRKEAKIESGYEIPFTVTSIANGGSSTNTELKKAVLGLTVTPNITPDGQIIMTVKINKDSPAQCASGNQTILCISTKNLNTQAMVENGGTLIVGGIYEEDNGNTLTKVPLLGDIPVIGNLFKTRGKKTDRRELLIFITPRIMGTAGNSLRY
# [3] = target: T1, PilQ complex (native secretin) (Neisseria meningitidis M1080); test: electron microscopy (nanogold); settings: native protein, label: 5' biotin, streptavidin-5 nm gold
Sequence,binding result [1],further results
CAACAACAACAACAGCCGTCTGAACCAAATTCAGACGGCAACAACAACAACA (double strand) [T1+T2 hybrid],binds,
CAACAACAACAACAGGCCTGTCATCCAAAATGACAGGCCAACAACAACAACA (double strand) [T3+T4 hybrid],binds,
CCGCCGCCTGCCGTCTGAAAGATATTCAGACGGCATCGGC (double strand) [T7+T8 hybrid],binds,
CCGCCGCCTGCCGTCTGAAAGATATTCAGACGGCATCGGC [T7],,binding result [2]: binds
GCCGTCTGAA (double strand) [DUS 10-mer duplex],,binding result [3]: binds
"GCCGTCTGAA [DUS 10-mer, single-stranded]",,binding result ([3]; single-stranded DNA): binds

# Construct, isoform or probe ends are uncertain for at least one entry. For part of these data: At least one verdict rests on a figure or table, not on a statement of the authors. For part of these data: Where a protein sequence is shown, tags need not be part of it.
